Anti-infective test results gathered from many reports (values: NIAID ChemDB through PubChem).

Common to all: growth or infection tests; organism: Aspergillus niger

Blank or dashed fields: not listed here.

SMILES	read-out	method	strain or isolate	result
CCn1cc(C(=O)O)c(=O)c2cc(F)c(N3CCN(CN4C(=O)C(=Nc5ccc(S(=O)(=O)Nc6ncnc(OC)c6OC)cc5)c5cc(Cl)ccc54)CC3)cc21	MIC	-	-	39.06 µg/mL
COc1ccc(C=C2SC(c3cc4cc(C)ccc4nc3Cl)N(n3c(-c4ccc(Cl)cc4)nc4ccccc4c3=O)C2=O)cc1	MIC99	broth dilution / visual reading	-	500 µg/mL
CCCCCCCCCCCCCCCCCC(=O)NC(CCCN)C(=O)NC(CCCN)C(=O)NC(CCCN)C(=O)NC(CCCN)C(=O)NC(CCCN)C(N)=O	MIC	broth dilution	ATCC 64028	1.5 µg/mL
O=C(NN1C(=O)/C(=C/c2cc3ccccc3nc2Cl)N=C1c1ccccc1)c1ccccc1O	MIC	broth dilution	MTCC 282	250 µg/mL
COc1cc(C=C2SC(c3cc4cc(C)ccc4nc3Cl)N(n3c(-c4ccc(Cl)cc4)nc4ccccc4c3=O)C2=O)cc(OC)c1OC	MIC99	broth dilution / visual reading	-	100 µg/mL
O=C(CCN1C(=O)S/C(=C\c2ccc(O)cc2O)C1=O)Nc1ccccc1O	MIC	-	-	25 µg/mL
Cc1nc(NC(=O)c2ccc(F)cc2)sc1C(=O)N/N=C1/S/C(=C/c2ccccc2Cl)C(=O)N1c1ccccc1	MIC50	-	MTCC 282	250 µg/mL
Cc1nc2c(s1)C(=O)C(Nc1ccccc1)=C(Cl)C2=O	MIC	broth dilution	KCTC 1231	25 µg/mL
Cc1nc(NC(=O)c2ccc(F)cc2)sc1C(=O)N/N=C1/S/C(=C/c2cccc(O)c2)C(=O)N1c1ccccc1	MIC50	-	MTCC 282	50 µg/mL
Cc1ccc(NC(=O)CCN2C(=O)S/C(=C\c3ccc(C)cc3C)C2=O)cc1	MIC	-	-	50 µg/mL
Cc1nc2c(s1)C(=O)C(Nc1cccc(F)c1)=C(Cl)C2=O	MIC	broth dilution	KCTC 1231	6.3 µg/mL
O=C(NN1C(=O)/C(=C/c2cc3ccccc3nc2Cl)N=C1c1ccccc1)c1cccc(O)c1	MIC	broth dilution	MTCC 282	100 µg/mL
N=c1oc2ccccc2c2csc(N)c12	MIC	broth dilution	-	16 µg/mL
CC(=O)Nc1ccc(OCC(=O)N2N=C(c3nc4ccccc4[nH]3)CC2c2ccccc2[N+](=O)[O-])cc1	MIC100	-	MTCC 282	50 µg/mL
CCn1cc(C(=O)O)c(=O)c2cc(F)c(N3CCNCC3)cc21	MIC	-	-	156 µg/mL
[I][Cd][I].[I][Cd][I].c1cnc2c(SCc3ccncc3)cccc2c1.c1cnc2c(SCc3ccncc3)cccc2c1	MIC	broth dilution / visual reading	-	>101 µM
CCn1cc(C(=O)O)c(=O)c2cc(F)c(N3CCN(CN4C(=O)C(=Nc5ccc(S(=O)(=O)Nc6ncccn6)cc5)c5cc(Cl)ccc54)CC3)cc21	MIC	-	-	156 µg/mL
COC(=O)/C=C/c1ccc(OC)cc1	MIC	broth dilution / resazurin	-	500 µg/mL
[I][Cd][I].c1ccc(CSc2cccc3cccnc23)nc1	MIC	broth dilution / visual reading	-	101 µM
Cc1ccc2nc(Cl)c(C3SC(=Cc4ccccc4Cl)C(=O)N3n3c(-c4ccc(Cl)cc4)nc4ccccc4c3=O)cc2c1	MIC99	broth dilution / visual reading	-	500 µg/mL
CCCCCCCCCCCC(=O)NC(CCCN)C(=O)NC(CCCN)C(=O)NC(CCCN)C(=O)NC(CCCN)C(N)=O	MIC	broth dilution	ATCC 64028	12.5 µg/mL
O=C(NN1C(=O)/C(=C/c2cc3ccccc3nc2Cl)N=C1c1ccccc1)c1ccc(Cl)cc1O	MIC	broth dilution	MTCC 282	250 µg/mL
CCCCCCCCCCCC(=O)NC(CCCN)C(N)=O	MIC	broth dilution	ATCC 64028	>100 µg/mL
CC(=O)Nc1ccc(OCC(=O)N2N=C(c3nc4ccccc4[nH]3)CC2c2cccc(C)c2)cc1	MIC100	-	MTCC 282	1000 µg/mL
COc1ccc(NC2=C(Cl)C(=O)c3nc(C)sc3C2=O)cc1	MIC	broth dilution	KCTC 1231	1.6 µg/mL
CCCCCCCCCCCCCC(=O)NC(CCCN)C(=O)NC(CCCN)C(N)=O	MIC	broth dilution	ATCC 64028	25 µg/mL
Cc1nc(NC(=O)c2ccc(F)cc2)sc1C(=O)N/N=C1/S/C(=C/c2ccc(O)cc2)C(=O)N1c1ccccc1	MIC50	-	MTCC 282	250 µg/mL
Cc1cc(C)cc(/C=C2\SC(=O)N(CCC(=O)Nc3ccccc3O)C2=O)c1	MIC	-	-	50 µg/mL
CCCCCCCCCCCCCCCCCC(=O)NC(CCCN)C(=O)NC(CCCN)C(=O)NC(CCCN)C(=O)NC(CCCN)C(N)=O	MIC	broth dilution	ATCC 64028	1.5 µg/mL
Cc1ccc(/C=C2/S/C(=N/NC(=O)c3sc(NC(=O)c4ccc(F)cc4)nc3C)N(c3ccccc3)C2=O)cc1	MIC50	-	MTCC 282	100 µg/mL
Cc1ccc2nc(Cl)c(C3SC(=Cc4ccc(Cl)cc4)C(=O)N3n3c(-c4ccc(Cl)cc4)nc4ccccc4c3=O)cc2c1	MIC99	broth dilution / visual reading	-	100 µg/mL
Cc1ccc(NC2=C(Cl)C(=O)c3nc(C)sc3C2=O)cc1	MIC	broth dilution	KCTC 1231	25 µg/mL
CCCCCCCC(=O)NC(CCCN)C(=O)NC(CCCN)C(=O)NC(CCCN)C(N)=O	MIC	broth dilution	ATCC 64028	>100 µg/mL
CC(=O)Nc1ccc(OCC(=O)N2N=C(c3nc4ccccc4[nH]3)CC2c2cccc(Cl)c2)cc1	MIC100	-	MTCC 282	500 µg/mL
CCn1cc(C(=O)O)c(=O)c2cc(F)c(N3CCN(CN4C(=O)/C(=N\c5ncc(Cc6cc(OC)c(OC)c(OC)c6)c(N)n5)c5cc(Cl)ccc54)CC3)cc21	MIC	-	-	78.12 µg/mL
COc1ccc(-c2cc(=S)ss2)cc1	MIC	agar	-	100 µg/mL
Cc1nc2c(s1)C(=O)C(Nc1ccc(Br)cc1)=C(Cl)C2=O	MIC	broth dilution	KCTC 1231	6.3 µg/mL
Cc1nc(NC(=O)c2ccc(F)cc2)sc1C(=O)N/N=C1/S/C(=C/c2ccc([N+](=O)[O-])cc2)C(=O)N1c1ccccc1	MIC50	-	MTCC 282	500 µg/mL
Cc1cc(C)cc(/C=C2\SC(=O)N(CCC(=O)Nc3ccc(C)cc3Cl)C2=O)c1	MIC	-	-	>100 µg/mL
CCOC(=O)c1c(N)oc2c1cc(O)c1sc(C)nc12	MIC	broth dilution	KCTC 1231	100 µg/mL
CCCCCCCC(=O)NC(CCCN)C(N)=O	MIC	broth dilution	ATCC 64028	>100 µg/mL
O=C(CCN1C(=O)S/C(=C\c2cccc(O)c2)C1=O)Nc1cccc(O)c1	MIC	-	-	12.5 µg/mL
CC(=O)Nc1ccc(OCC(=O)N2N=C(c3nc4ccccc4[nH]3)CC2c2ccccc2)cc1	MIC100	-	MTCC 282	250 µg/mL
Cc1nc2c(s1)C(=O)C(Nc1ccc(C)c(C)c1)=C(Cl)C2=O	MIC	broth dilution	KCTC 1231	1.6 µg/mL
O=C(NN1C(=O)/C(=C/c2cc3ccccc3nc2Cl)N=C1c1ccccc1)c1ccc(F)cc1	MIC	broth dilution	MTCC 282	1000 µg/mL
CCn1cc(C(=O)O)c(=O)c2cc(F)c(N3CCN(CN4C(=O)C(=Nc5ccc(S(=O)(=O)Nc6ncnc(OC)c6OC)cc5)c5cc(Br)ccc54)CC3)cc21	MIC	-	-	19.35 µg/mL
O=C(NN1C(=O)/C(=C/c2cc3ccccc3nc2Cl)N=C1c1ccccc1)c1ccc(Cl)cc1	MIC	broth dilution	MTCC 282	100 µg/mL
Cc1cc(NC(=O)CCN2C(=O)S/C(=C\c3cccc(Br)c3)C2=O)ccc1Cl	MIC	-	-	>100 µg/mL
CC(=O)Nc1ccc(OCC(=O)N2N=C(c3nc4ccccc4[nH]3)CC2c2cccc([N+](=O)[O-])c2)cc1	MIC100	-	MTCC 282	500 µg/mL

For reference, 4 entries again:

| SMILES | read-out | method | strain or isolate | result |
|---|---|---|---|---|
| O=C(CCN1C(=O)S/C(=C\c2ccc(O)cc2O)C1=O)Nc1ccccc1O | MIC | - | - | 25 µg/mL |
| Cc1ccc(/C=C2/S/C(=N/NC(=O)c3sc(NC(=O)c4ccc(F)cc4)nc3C)N(c3ccccc3)C2=O)cc1 | MIC50 | - | MTCC 282 | 100 µg/mL |
| Cc1cc(C)cc(/C=C2\SC(=O)N(CCC(=O)Nc3ccc(C)cc3Cl)C2=O)c1 | MIC | - | - | >100 µg/mL |
| Cc1ccc(NC2=C(Cl)C(=O)c3nc(C)sc3C2=O)cc1 | MIC | broth dilution | KCTC 1231 | 25 µg/mL |

MIC50, MIC90 and the like: level of inhibition, or share of isolates inhibited. Conditions beyond the fields shown may differ between rows.